Pooled drug test results. Numbers come from NIAID ChemDB, via PubChem.

Common to all: growth or infection tests; organism: Cryptosporidium parvum; read-out: inhibition

An empty or dashed field is not shown.

| smiles | cell line | method | tested at | strain | value |
|---|---|---|---|---|---|
| CC[C@H]1OC(=O)[C@H](C)[C@@H](O[C@H]2C[C@@](C)(OC)[C@@H](O)[C@H](C)O2)[C@H](C)[C@@H](O[C@@H]2O[C@H](C)C[C@H](N(C)C)[C@H]2O)[C@](C)(O)C[C@@H](C)CN(C)[C@H](C)[C@@H](O)[C@]1(C)O | A549 | - | 0.5 µg/mL | - | 4.2% |
| CC[C@H]1OC(=O)[C@H](C)[C@@H](O[C@H]2C[C@@](C)(OC)[C@@H](O)[C@H](C)O2)[C@H](C)[C@@H](O[C@@H]2O[C@H](C)C[C@H](N(C)C)[C@H]2O)[C@](C)(O)C[C@@H](C)CN(C)[C@H](C)[C@@H](O)[C@]1(C)O | A549 | - | 0.5 µg/mL | - | 7% |
| O=C1c2cn[nH]c2C(=O)c2c(O)ccc(O)c21 | - | - | 50 µM | - | 100% |
| Nc1ccc(CSc2c3ccccc3nc3cc(Cl)ccc23)cc1 | - | - | 50 µg/mL | - | 8% |
| O=C1c2ccccc2C(=O)c2[nH]ncc21 | - | - | 50 µM | - | <10% |
| O=C1/C(=C/c2ccccc2)Oc2cc(O)ccc21 | - | - | 50 µM | - | 10% |
| NC[C@@H]1O[C@H](O[C@H]2[C@@H](O)[C@H](O[C@@H]3[C@@H](O)[C@H](N)C[C@H](N)[C@H]3O[C@H]3O[C@H](CO)[C@@H](O)[C@H](O)[C@H]3N)O[C@@H]2CO)[C@H](N)[C@@H](O)[C@@H]1O | MDBK | antigen | 2 µg/mL | - | 79.4% |
| COc1cc(/C=C/C=C\c2ccc3c(c2)OCO3)oc(=O)c1 | - | - | 10 µM | - | 0% |
| CCN(CC)CCSc1c2ccccc2nc2cc(Cl)ccc12 | - | - | 10 µg/mL | - | 37% |
| CC(=O)Oc1ccccc1C(=O)Nc1ncc([N+](=O)[O-])s1 | MDBK | cell count | 0.1 µg/mL | - | 10.3% |
| COc1cccc2c1C(=O)c1cnn(C)c1C2=O | - | - | 10 µM | - | <10% |
| O=C1/C(=C/c2cccc(O)c2)Oc2cc(O)ccc21 | - | - | 50 µM | - | 92% |
| CSc1c2ccccc2nc2ccccc12 | - | - | 10 µg/mL | - | 20% |
| CCn1nc(C)c2c1C(=O)c1ccccc1C2=O | - | - | 100 µM | - | <10% |
| O=C(c1ccccc1)c1oc2cc(O)cc(Cc3ccccc3)c2c1O | - | - | 10 µM | - | 2% |
| CCSc1c2ccccc2nc2cc([N+](=O)[O-])ccc12 | - | - | 10 µg/mL | - | 19% |
| Cc1[nH]nc2c1C(=O)c1c(O)ccc(O)c1C2=O | - | - | 10 µM | - | <10% |
| CC[C@@H](C(=O)[C@@H](C)[C@@H](O)[C@H](C)CCc1ccc(C)c(O)c1C(=O)O)[C@H]1O[C@](CC)([C@H]2CC[C@](O)(CC)[C@H](C)O2)C[C@@H]1C | MDCK | luminescence | 0.02 µg/mL | IOWA | 0% |
| NC[C@@H]1O[C@H](O[C@H]2[C@@H](O)[C@H](O[C@@H]3[C@@H](O)[C@H](N)C[C@H](N)[C@H]3O[C@H]3O[C@H](CO)[C@@H](O)[C@H](O)[C@H]3N)O[C@@H]2CO)[C@H](N)[C@@H](O)[C@@H]1O | - | - | 10 µM | - | <10% |
| COc1cc(/C=C/C=C\c2ccccc2OC)oc(=O)c1 | - | - | 50 µM | - | 19% |
| CCn1nc(Cc2ccccc2)c2c1C(=O)c1c(OC(C)=O)c(C)c(C)c(OC(C)=O)c1C2=O | - | - | 10 µM | - | <10% |
| COc1cc(/C=C2\Oc3cc(O)cc(O[C@@H]4O[C@H](CO)[C@@H](O)[C@H](O)[C@H]4O)c3C2=O)cc(OC)c1O | - | - | 25 µM | - | 58% |
| Cc1cccc2c1C(=O)c1cnn(C)c1C2=O | - | - | 50 µM | - | <10% |
| COc1cc(/C=C2\Oc3cc(O)cc(O[C@@H]4O[C@H](CO)[C@@H](O)[C@H](O)[C@H]4O)c3C2=O)cc(OC)c1OC(C)=O | - | - | 10 µM | - | 0% |
| CCSc1c2ccccc2nc2cc(Cl)ccc12 | - | - | 10 µg/mL | - | 10% |

4 of the rows above, restated:

smiles | cell line | method | tested at | strain | value
COc1cccc2c1C(=O)c1cnn(C)c1C2=O | - | - | 10 µM | - | <10%
O=C1/C(=C/c2cccc(O)c2)Oc2cc(O)ccc21 | - | - | 50 µM | - | 92%
O=C1c2ccccc2C(=O)c2[nH]ncc21 | - | - | 50 µM | - | <10%
COc1cc(/C=C2\Oc3cc(O)cc(O[C@@H]4O[C@H](CO)[C@@H](O)[C@H](O)[C@H]4O)c3C2=O)cc(OC)c1OC(C)=O | - | - | 10 µM | - | 0%

Neighbouring rows are from separate reports. Inhibition is in % at the dose shown (toxicity tests: loss of growth or viability).